Pooled drug test results. Numbers come from NIAID ChemDB, via PubChem.

All rows: growth or infection tests; agent: Rhinovirus

ECn is the concentration giving n% inhibition of infection, replication or growth.

CS(=O)(=O)c1ccc(NCc2ccc(Cl)c(Cl)c2)nc1 ; cells: HeLa ; read by: cytopathic effect ; strain: TYPE 33 ; read-out: EC50 ; result: 0.6 µg/mL
COc1ccc(-c2snc(SC)c2C#N)cc1 ; cells: HELA-OHIO ; read by: cytopathic effect ; strain: Serotype 2 (group B) ; read-out: EC50 ; result: >12 µM
CCOc1cc(OC)ccc1-c1cc(N(CC)CC)no1 ; cells: HeLa ; read by: cytopathic effect ; strain: Serotype 72 (group A) ; read-out: EC50 ; result: >90 µM
CS(=O)(=O)c1ccc(Cc2ccc(F)cc2)nc1 ; cells: HeLa ; read by: cytopathic effect ; strain: TYPE 1A ; read-out: EC50 ; result: 2.5 µg/mL
CSc1nsc(-c2ccc(OCc3ccccc3)cc2)c1C#N ; cells: HELA-OHIO ; read by: cytopathic effect ; strain: Serotype 42 (group A) ; read-out: EC50 ; result: 7 µM
CN(C)c1nnc2c3ccccc3n(C)c2n1 ; cells: WI-38 ; read by: plaque count ; strain: 1059 ; read-out: EC50 ; result: 100 µg/mL
CCOC(=O)c1ccc(OCCC2CCN(c3ccc(C)nn3)CC2)cc1 ; cells: KB ; read by: neutral red ; strain: FO2-2317 (ICAM-1 receptor group 68) ; read-out: EC50 ; result: 0.019 µM
Cc1ccc(Cn2cnc3c(N(C)C)nc(C(F)(F)F)nc32)c(C)c1 ; cells: M-HELA ; read by: plaque count ; strain: TYPE 1B ; read-out: EC50 ; result: 0.11 µM
CCOc1nc2ccc(OCCC3CCN(c4cc(C)c(Cl)nn4)CC3)cc2o1 ; cells: MRC-5 ; read by: cytopathic effect ; strain: Serotype 2 ; read-out: EC50 ; result: 0.012 µg/mL
Cc1cc(CCCOc2cc(Cl)c(-c3nnc(C)o3)c(Cl)c2)on1 ; strain: serotype 2 1A 1B 6 14 21 22 15 25 30 50 67 89 86 41 ; read-out: MIC80 ; result: 0.35 µg/mL
CSc1nsc(-c2ccc(OCCCCOc3ccccc3)cc2)c1C#N ; cells: HELA-OHIO ; read by: cytopathic effect ; strain: Serotype 2 (group B) ; read-out: EC50 ; result: >20 µM
C#CCOc1cc(OC)ccc1-c1cc(N(CC)CC)no1 ; cells: HeLa ; read by: cytopathic effect ; strain: Serotype 14 ; read-out: EC50 ; result: >40 µM
CSc1nsc(-c2ccc(OCCc3ccccc3)cc2)c1C#N ; cells: HELA-OHIO ; read by: cytopathic effect ; strain: Serotype 14 (group A) ; read-out: EC50 ; result: >20 µM
COc1ccc(-c2cc(N3CCCC3)no2)c(O)c1 ; cells: HeLa ; read by: cytopathic effect ; strain: Serotype 2 ; read-out: EC50 ; result: 4.2 µM
Cc1cc(CCCCCOc2cc(Cl)c(-c3nnco3)c(Cl)c2)on1 ; strain: Serotype 50 ; read-out: MIC80 ; result: 0.091 µg/mL
Cn1c2ccccc2c2nnc(NCC(C)(C)CO)nc21 ; cells: WI-38 ; read by: plaque count ; strain: 1059 ; read-out: EC50 ; result: 20 µg/mL
CS(=O)(=O)c1ccc(Oc2ccc(C(=O)c3ccccc3)cc2)nc1 ; cells: HeLa ; read by: cytopathic effect ; strain: TYPE 9 ; read-out: EC50 ; result: 5 µg/mL
CCOc1ccc(-c2cc(N3CCCCC3)no2)c(O)c1 ; cells: HeLa ; read by: cytopathic effect ; strain: Serotype 2 ; read-out: EC50 ; result: >347 µM
CN(C)c1nc(C(F)(F)F)nc2c1ncn2Cc1ccc(C(F)(F)F)cc1 ; cells: M-HELA ; read by: plaque count ; strain: Serotype 30 ; read-out: EC50 ; result: >8 µM
Cc1c(-c2ccccc2)n(-c2ccc(F)cc2)c2ccc(C(C)C)cc2c1=O ; cells: HELA-OHIO ; read by: cytopathic effect ; strain: 1B/B632 ; read-out: EC50 ; result: 0.27 µg/mL
CSc1nsc(-c2ccc(OC(C)(C)C)cc2)c1C#N ; cells: HELA-OHIO ; read by: cytopathic effect ; strain: Serotype 41 (group B) ; read-out: EC50 ; result: >40 µM
Cn1c2ccccc2c2nnc(NCCCOC(=O)CCC(O)O)nc21 ; cells: WI-38 ; read by: plaque count ; strain: HGP ; read-out: EC50 ; result: 100 µg/mL
CSc1nsc(-c2ccc(O)cc2)c1C#N ; cells: HELA-OHIO ; read by: cytopathic effect ; strain: Serotype 41 (group B) ; read-out: EC50 ; result: >10 µM
CN(C)c1ccc(Cn2cnc3c(Nc4cccc(F)c4)nc(C(F)(F)F)nc32)cc1 ; cells: M-HELA ; read by: plaque count ; strain: Serotype 2 ; read-out: EC50 ; result: 130 µM
Cc1cc(CCCCCOc2c(Cl)cc(C3=NCCO3)cc2Cl)on1 ; cells: HeLa ; read by: plaque count ; strain: TYPE 38 ; read-out: EC50 ; result: 0.018 µg/mL
CS(=O)(=O)c1cccc(Oc2ccc(C(=O)c3ccccc3)cc2)n1 ; cells: HeLa ; read by: cytopathic effect ; strain: TYPE 64 ; read-out: EC50 ; result: >10 µg/mL
CS(=O)(=O)c1ccc(NCc2ccc(C(F)(F)F)cc2)nc1 ; cells: HeLa ; read by: cytopathic effect ; strain: TYPE 64 ; read-out: EC50 ; result: 1.6 µg/mL
CCOc1cnc2cc(OCCC3CCN(c4ccc(C)nn4)CC3)ccc2n1 ; cells: MRC-5 ; read by: cytopathic effect ; strain: Serotype 2 ; read-out: EC50 ; result: 0.012 µg/mL
Cc1c(-c2ccccc2)n(-c2cccc(F)c2)c2ccc(C(C)C)cc2c1=O ; cells: HELA-OHIO ; read by: cytopathic effect ; strain: 1B/B632 ; read-out: EC50 ; result: 0.18 µg/mL
CC(C)S(=O)(=O)c1ccc(Cc2ccc(Cl)c(Cl)c2)nc1 ; cells: HeLa ; read by: cytopathic effect ; strain: TYPE 1A ; read-out: EC50 ; result: 0.3 µg/mL
CCC(CO)Nc1nnc2c3ccccc3n(C)c2n1 ; cells: WI-38 ; read by: plaque count ; strain: 1059 ; read-out: EC50 ; result: 220 µg/mL
CCn1c2c(c(=O)c3cc(C(C)C)ccc31)Cc1ccccc1-2 ; cells: HELA-OHIO ; read by: cytopathic effect ; strain: 31/41F ; read-out: EC50 ; result: 0.29 µg/mL
CCN(CC)c1cc(-c2ccc(OC)cc2OC)on1 ; cells: HeLa ; read by: cytopathic effect ; strain: Serotype 45 (group A) ; read-out: EC50 ; result: >362 µM
CCOc1noc2cc(OCCC3CCN(c4nnc(C)s4)CC3)ccc12 ; cells: MRC-5 ; read by: cytopathic effect ; strain: Serotype 14 ; read-out: EC50 ; result: 0.005 µg/mL
CC(O)CCNc1nnc2c3ccccc3n(C)c2n1 ; cells: WI-38 ; read by: plaque count ; strain: 1059 ; read-out: EC50 ; result: 45 µg/mL
CN(C)c1nc(C(F)(F)F)nc2c1ncn2Cc1ccc(Cl)c(Cl)c1 ; cells: M-HELA ; read by: plaque count ; strain: Serotype 3 ; read-out: EC50 ; result: >8 µM
CSc1nsc(-c2ccc(OCCCCOc3ccc(C#N)cc3)cc2)c1C#N ; cells: HELA-OHIO ; read by: cytopathic effect ; strain: Serotype 41 (group B) ; read-out: EC50 ; result: >2 µM
CCOc1nc2ccc(OCCC3CCN(c4cc(C)cnn4)CC3)cc2o1 ; cells: MRC-5 ; read by: cytopathic effect ; strain: Serotype 14 ; read-out: EC50 ; result: 0.166 µg/mL
CN(C)c1cc(-c2ccc(O)cc2O)on1 ; cells: HeLa ; read by: cytopathic effect ; strain: Serotype 2 ; read-out: EC50 ; result: >227 µM
CSc1nsc(-c2ccc(OCCOc3ccc([N+](=O)[O-])cc3)cc2)c1C#N ; cells: HELA-OHIO ; read by: cytopathic effect ; strain: Serotype 86 (group A) ; read-out: EC50 ; result: 0.4 µM
CC(C)Oc1ccc(Cn2cnc3c(N(C)C)nc(C(F)(F)F)nc32)cc1 ; cells: M-HELA ; read by: plaque count ; strain: Serotype 15 ; read-out: EC50 ; result: >8 µM
CCCc1noc2cc(OCCC3CCN(c4ccc(C)nn4)CC3)ccc12 ; cells: MRC-5 ; read by: cytopathic effect ; strain: Serotype 14 ; read-out: EC50 ; result: 0.019 µg/mL
CS(=O)(=O)c1ccc(Cc2ccc(Cl)c(Cl)c2)nc1 ; cells: HeLa ; read by: cytopathic effect ; strain: TYPE 89 ; read-out: EC50 ; result: 1.3 µg/mL
Fc1cccc(Cn2cnc3c(Nc4cccc(F)c4)nc(C(F)(F)F)nc32)c1 ; cells: M-HELA ; read by: plaque count ; strain: Serotype 23 ; read-out: EC50 ; result: 1.1 µM
CSc1nsc(-c2ccc(OCCCOc3ccc([N+](=O)[O-])cc3)cc2)c1C#N ; cells: HELA-OHIO ; read by: cytopathic effect ; strain: Serotype 70 (group A) ; read-out: EC50 ; result: >1 µM
CN(C)c1nc(C(F)(F)F)nc2c1ncn2Cc1ccc(S(C)(=O)=O)cc1 ; cells: M-HELA ; read by: plaque count ; strain: Serotype 1B ; read-out: EC50 ; result: 0.5 µM
CCS(=O)(=O)c1ccc(NCc2ccc(Cl)c(Cl)c2)nc1C#N ; cells: HeLa ; read by: cytopathic effect ; strain: TYPE 1A ; read-out: EC50 ; result: 3.1 µg/mL
Cc1cc(CCCCCOc2cc(Cl)c(-c3nnc(C)o3)c(Cl)c2)on1 ; strain: Serotype 67 ; read-out: MIC80 ; result: 0.1 µg/mL
Cn1c2ccc(Cl)cc2c2nnc(NCCCO)nc21 ; cells: WI-38 ; read by: plaque count ; strain: HGP ; read-out: EC50 ; result: 100 µg/mL
CN(C)c1nc(C(F)(F)F)nc2c1ncn2Cc1ccccc1Cl ; cells: M-HELA ; read by: plaque count ; strain: Serotype 30 ; read-out: EC50 ; result: >8 µM

A number after MIC or MFC names an inhibition level or a share of isolates. Rows are shuffled and stem from different studies.